Share of PSTVd loop 6 variants by leaf site

The pool varies loop 6 of the PSTVd intermediate strain in the pattern UNNNCGNNNG; wild type is UGACCGCGAG (upper and lower strand joined, each 5' to 3', the first 5 letters being the upper strand, closing pairs included).

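A pool of all variants was put on leaves of three Nicotiana benthamiana plants. Progeny were sequenced from the inoculated region (day 5), the margin of the inoculated leaf (day 10) and systemic leaves (day 12).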

Values are reads per thousand in the sample; higher means more abundant, 0 means not found. Each site shows the three plants. "Pool" is the share in the plasmid pool used as inoculum, on the same scale. The inoculated region was read from the minus strand, the other sites from the plus strand. IR is the inoculated region, LM the leaf margin, Sys the systemic leaves.

sequence | pool | IR | LM | Sys
CGACCGGUCG | 0.0131 | 0 0.0180 0.0369 | 0 0 0 | 0 0 0
UAAACGCUGG | 0.105 | 0.191 0.0719 0.0738 | 0 0 0 | 0 0 0
UAAACGGUCG | 0.261 | 0.730 0.736 0.535 | 0.0828 0.0252 0.0464 | 0 0.0202 0.0205
UAACCGACAG | 0.288 | 0.643 0.754 0.461 | 0.0828 0.101 0.0464 | 0.0180 0.121 0.0205
UAACCGCAGG | 0.157 | 0.712 0.611 0.664 | 0.0552 0.0757 0.0696 | 0 0 0
UAACCGCCCG | 0.196 | 0.643 0.665 0.535 | 0.0552 0.0757 0.0696 | 0 0 0
UAAUCGUGCG | 0.392 | 0.0174 0.126 0.0922 | 0 0 0 | 0 0 0
UACACGGGAG | 0.105 | 0.122 0.0359 0.129 | 0.0276 0 0.0232 | 0 0 0
UAGACGCCAG | 0.131 | 0.139 0.0539 0.0922 | 0 0 0.0232 | 0 0 0
UAUACGACUG | 0.288 | 0.156 0.0898 0.0553 | 0 0 0.0232 | 0 0 0
UAUACGCACG | 0.248 | 0.191 0.0359 0.0738 | 0 0 0.0232 | 0 0 0
UAUGCGACAG | 0.301 | 0.139 0.0180 0.0738 | 0.0276 0 0.0232 | 0 0 0
UAUUCGGUAG | 0.314 | 0.139 0.0719 0.0184 | 0 0 0 | 0 0 0
UCACCGUCGG | 0.209 | 0.191 0.0719 0.148 | 0 0 0.0232 | 0 0 0
UCAGCGGUCG | 0.288 | 0.0521 0.0898 0.0922 | 0 0 0 | 0 0 0
UCGCCGCGAU | 0.0131 | 0.608 0.575 0.461 | 0.138 0.0757 0.162 | 0 0 0
UCUCCGUAUG | 0.275 | 0.0521 0.0898 0.0738 | 0.193 0 0 | 0 0 0
UCUGCGGUAG | 0.314 | 0.139 0.0898 0.0922 | 0 0 0 | 0 0 0
UGAGCGCCGG | 0.248 | 0.0695 0.0719 0.0369 | 0.0276 0 0.0232 | 0 0 0
UGCCCGACAG | 0.235 | 0.174 0.0359 0.0553 | 0 0 0.0232 | 0 0.0404 0
UGCCCGGUAG | 0.248 | 0.0869 0.0898 0.184 | 0 0 0.0232 | 0 0 0
UGCCCUACGG | 0.0131 | 0 0 0 | 0 0 0 | 0 0 0
UGCGCGUUAG | 0.340 | 0.122 0.0898 0.148 | 0 0 0 | 0.0359 0.0606 0.0820
UGCUCGCGGG | 0.196 | 0.139 0.108 0.148 | 0 0 0 | 0 0 0
UGCUCGUCAG | 0.275 | 0.104 0.0180 0.0553 | 0 0 0 | 0 0 0
UGGACUACUA | 0.0131 | 0 0 0 | 0 0 0 | 0 0 0
UGGCCGGCCG | 0.222 | 0.0869 0.180 0.0738 | 0 0 0.0232 | 0 0 0
UGUACGUAGG | 0.235 | 0.0869 0.126 0.0738 | 0.0276 0 0.0464 | 0 0 0
UGUUCGUACG | 0.301 | 0.0869 0.108 0.111 | 0 0 0 | 0 0 0
UUAACGGAGG | 0.275 | 0.643 0.736 0.553 | 0.0276 0.0504 0.0928 | 0 0 0
UUACCGGCCG | 0.157 | 0.104 0.108 0.184 | 0 0 0.0232 | 0 0 0
UUAUCGACCG | 0.314 | 0.0695 0.108 0.0738 | 0 0 0 | 0 0 0
UUCCCGACAG | 0.183 | 0.122 0.0898 0.148 | 0.0276 0 0.0232 | 0 0 0
UUCUCGCGAU | 0.0261 | 0.0348 0.0898 0.129 | 0.0552 0 0 | 0 0 0
UUGUCGGCGG | 0.235 | 0.0695 0.0719 0.148 | 0 0 0 | 0 0 0.0205
UUUACGACAG | 0.157 | 0.0348 0.180 0.0369 | 0.0552 0 0 | 0 0 0
UUUACGUGAG | 0.118 | 0.851 0.754 0.516 | 0.138 0.0504 0.0464 | 0 0 0
UUUACGUGUG | 0.275 | 0.0869 0.0898 0.0738 | 0 0 0.0232 | 0 0 0
UUUCCGAUUG | 0.445 | 0.122 0.108 0.184 | 0 0.0252 0.0696 | 0 0 0.349

Excerpt, the final 5 entries:

* UUGUCGGCGG (pool 0.235) = IR 0.0695 0.0719 0.148; LM 0 0 0; Sys 0 0 0.0205
* UUUACGACAG (pool 0.157) = IR 0.0348 0.180 0.0369; LM 0.0552 0 0; Sys 0 0 0
* UUUACGUGAG (pool 0.118) = IR 0.851 0.754 0.516; LM 0.138 0.0504 0.0464; Sys 0 0 0
* UUUACGUGUG (pool 0.275) = IR 0.0869 0.0898 0.0738; LM 0 0 0.0232; Sys 0 0 0
* UUUCCGAUUG (pool 0.445) = IR 0.122 0.108 0.184; LM 0 0.0252 0.0696; Sys 0 0 0.349

Wild type was 20.7 per thousand in the pool and the most common sequence in every sample (inoculated region 195, 198, 203; leaf margin 629, 591, 734; systemic leaves 942, 870, 868). Sequences that differ at fixed positions probably stem from PCR or sequencing errors, and defective variants can be carried along by functional ones. Samples held 36,220 to 57,551 reads, so the smallest values rest on one or two reads.

From the data files of Wu et al. 2024, doi:10.1371/journal.ppat.1012142.